Anti-infective test results gathered from many reports (values: NIAID ChemDB through PubChem).

Common to all: growth or infection tests; organism: Mycobacterium tuberculosis

ECn is the concentration giving n% inhibition of infection, replication or growth. A number after MIC or MFC names an inhibition level or a share of isolates. a–b is a range or a potency band. An empty or dashed field is not shown. Lines come from different laboratories, so protocols vary. Percent inhibition refers to the dose given; in toxicity tests it is the harm to the cells. MIC bound comes from a single tested concentration.

| smiles | strain | changes | read by | endpoint | dose | result |
|---|---|---|---|---|---|---|
| c1cc2c(N3CCCCC3)cc(N3CCOCC3)nc2nc1N1CCCCC1 | H37Rv |  | BACTEC | inhibition | 6.25 µg/mL | 43% |
| O=C1CCc2nc3ccccc3c(=O)n21 | H37Rv |  | resazurin | MIC bound |  | >6.25 µg/mL |
| Cc1ccc(-n2c(=O)oc3ccc(Cl)cc3c2=S)cc1 | My 331/88 |  |  | MIC |  | 1 µM |
| CCCC(=O)OCC1OC(n2ccc(O)cc2=O)C(O)C1O | H37Rv |  | BACTEC | MIC bound |  | >12.5 µg/mL |
| O=c1oc2ccc(Cl)cc2c(=S)n1-c1cccc(Cl)c1 | My 331/88 |  |  | MIC |  | 1 µM |
| CCC1(CC)N=C2OCCN2C1=O | H37Rv |  | BACTEC | MIC bound |  | >12.5 µg/mL |
| CCOc1cccc(NC(=O)OCCC[NH+]2CCCCC2)c1 | My 331/88 |  |  | MIC |  | 125 µM |
| CCOC(=O)c1ccc(NC(=O)c2ccc(C)cc2O)cc1 | CNCTC MY331/88 |  |  | MIC |  | 8 µM |
| O=c1oc2ccc(Cl)cc2c(=O)n1-c1cccc(Cl)c1 | My 331/88 |  |  | MIC |  | 16 µM |
| CCc1ccc2c(c1)[nH]c1ccc(C=O)cc12 | H37Rv |  |  | MIC |  | >128 µM |
| O=C(NNS(=O)(=O)c1ccc(NC2=CC(=O)c3ccccc3C2=O)cc1)c1ccccc1 |  |  |  | MIC |  | 0.12 µg/mL |
| O=C(/C=C/C(=O)N1C/C(=C\c2ccccc2)C(=O)/C(=C/c2ccccc2)C1)Nc1ccc([N+](=O)[O-])cc1 | H37Rv |  |  | EC50 |  | <6.25 µg/mL |
| O=c1oc2ccc(Cl)cc2c(=S)n1-c1ccc(Cl)c(Cl)c1 | My 331/88 |  |  | MIC |  | 1 µM |
| CCCCCOc1ccccc1NC(=O)OCCN1CCCCC1 | My 331/88 |  |  | MIC |  | 16 µM |
| Cc1ccc2c(O)c(Cc3ccccc3)c(=O)[nH]c2n1 | H37Rv |  | BACTEC | EC50 |  | >6.25 µg/mL |
| COc1cc(C)cc2c3c([nH]c12)C(=O)c1ccccc1C3=O | H37Rv |  |  | MIC |  | >128 µM |
| CC(C)(C)OC(=O)[C@@H]1ON2O[C@H](OC3CCCC3(c3ccccc3)c3ccccc3)C[C@H]3OC(=O)C1C32 |  |  | BACTEC | inhibition | 0.5 µM | 0% |
| O=C(NNS(=O)(=O)c1ccc(NC2=CC(=O)c3ccccc3C2=O)cc1)c1ccncc1 |  |  |  | MIC |  | 0.03–0.12 µg/mL |
| S=c1oc2ccc(Cl)cc2c(=S)n1-c1ccc(Br)cc1 | My 331/88 |  |  | MIC |  | 0.5 µM |
| C=CCn1cnc2c(-c3ccco3)ncnc21 | H37Rv |  |  | EC50 |  | >6.25 µg/mL |
| CC(C)CCOc1ccc(NC(=S)Nc2ccc(OCCC(C)C)cc2)cc1 | H37Ra |  |  | MIC |  | 2 µg/mL |
| c1csc(-c2ncnc3c2ncn3C2CCOCC2)c1 | H37Rv |  |  | EC50 |  | >6.25 µg/mL |
| CCOC(=O)c1cc(C(=O)c2ccc(C)cc2)n2c1ccc1c3ncccc3ccc12 | H37Rv |  | reporter gene / fluorescence | EC90 |  | >200 µM |
| CCCCCCCCCCCCOc1ccc(NC(=O)OCCC[NH+]2CCCCC2)cc1 | My 331/88 |  |  | MIC |  | 8 µM |
| O=C(/C=C/C(=O)N1C/C(=C\c2ccccc2)C(=O)/C(=C/c2ccccc2)C1)Nc1ccc(Cl)cc1 | H37Rv |  |  | inhibition | 6.25 µg/mL | 0% |
| CCCCCCCCCCCCCCCCCCNC(=S)NCCCC(=O)OC | H37Ra |  |  | MIC |  | >20 µg/mL |
| COC1=C(C)C(=O)c2[nH]c3ccccc3c2C1=O | H37Rv |  |  | MIC |  | 9 µM |
| O=C(Nc1ccc(C2=NCCN2)c(Cl)c1)c1ccc(C(=O)Nc2ccc(C3=NCCN3)c(Cl)c2)cc1 | H37Rv |  | BACTEC | inhibition | 12.5 µg/mL | 69% |
| Oc1ccc2c(c1)[nH]c1ccccc12 | H37Rv |  |  | MIC |  | >128 µM |
| O=C(Nc1cccc(F)c1)c1cc([N+](=O)[O-])ccc1O | CNCTC MY331/88 |  |  | MIC |  | 31 µM |
| CCCCCCCCCCCCCCCCNC(=S)NCCCC(=O)OC | H37Ra |  |  | MIC |  | >20 µg/mL |
| COc1cc(C(=O)NC(=S)Nc2csc(-c3ccc(F)cc3)n2)cc(OC)c1OC | H37Rv |  | resazurin | MIC bound |  | >6.25 µg/mL |
| C=Cc1ccc2c(c1)[nH]c1ccccc12 | H37Rv |  |  | MIC |  | >128 µM |
| CC(C)OC(=O)c1cc(N)ccc1Cl | H37Rv |  | BACTEC | MIC bound |  | >12.5 µg/mL |
| N#Cc1ccc(NC(=O)c2cc(Br)ccc2O)cc1 | CNCTC MY331/88 |  |  | MIC |  | 2 µM |
| OC[C@@H]1O[C@@H](n2cnc3c(-c4ccco4)nc(Cl)nc32)[C@@H](O)[C@@H]1O | H37Rv |  |  | EC50 |  | >6.25 µg/mL |
| S=c1oc2ccc(Cl)cc2c(=S)n1-c1ccc(Cl)cc1 | My 331/88 |  |  | MIC |  | 1 µM |
| CCn1c2ccc([N+](=O)[O-])cc2c2c([N+](=O)[O-])c(NC(C)=O)ccc21 | H37Rv |  | BACTEC | inhibition | 12.5 µg/mL | -33% |
| CCCSc1ccc(NC(=S)Nc2ccc(OCCC(C)C)cc2)cc1 | H37Ra |  |  | MIC |  | 0.1 µg/mL |
| O=C1/C(=C/c2ccccc2)CN(C(=O)c2ccccc2)C/C1=C\c1ccccc1 | H37Rv |  |  | inhibition | 6.25 µg/mL | 24% |
| Cc1cn2c(C(=O)NCc3ccc4c(c3)CCO4)c(C)nc2s1 | H37Rv |  | luminescence | MIC |  | 0.54 µM |
| COC1=C(C)C(C)(O)c2[nH]c3ccccc3c2C1=O | H37Rv |  |  | MIC |  | >128 µM |
| CN(C)CC(/C(Cc1ccccc1)=N/NC(=O)C[n+]1ccccc1)c1ccccc1.[Cl-] | H37Rv |  | BACTEC | MIC bound |  | >12.5 µg/mL |
| Cc1ccc(C(=O)/C=C/c2ccc(C(=O)N3C/C(=C\c4ccccc4)C(=O)/C(=C/c4ccccc4)C3)cc2)cc1 | H37Rv |  |  | EC50 |  | >6.25 µg/mL |
| O=c1oc2ccc(Cl)cc2c(=S)n1-c1ccccc1 | My 331/88 |  |  | MIC |  | 1 µM |
| COc1cc(CO)cc2c1[nH]c1ccccc12 | H37Rv |  |  | MIC |  | >128 µM |
| CO[C@H]1/C=C/O[C@@]2(C)Oc3c(C)c(O)c4c(O)c(c(/C=N/N5CCN(C6CCCC6)CC5)c(O)c4c3C2=O)NC(=O)/C(C)=C\C=C\[C@H](C)[C@H](O)[C@@H](C)[C@@H](O)[C@@H](C)[C@H](O)[C@@H]1C | Isolate 920492 rifampicin-resistant |  |  | MIC |  | >32 µg/mL |
| C=CCNC(=S)/N=C/C(C(=O)Nc1ccccc1C)=C(\C)O | H37Rv |  | resazurin | MIC bound |  | >6.25 µg/mL |
| CCCCCOc1cccc(NC(=O)OC(COCC)CN2CCCCC2)c1 | My 331/88 |  |  | MIC |  | 32 µM |
| COC(=O)c1ccc(NS(=O)(=O)c2ccc(NC3=CC(=O)c4ccccc4C3=O)cc2)cc1 |  |  |  | MIC |  | 2 µg/mL |
| O=c1ccc2c(-c3ccccc3S(=O)(=O)O)c3ccc(O)c(O)c3oc-2c1O | H37Rv |  | BACTEC | inhibition | 12.5 µg/mL | 14% |
| c1ccc(CCn2cnc3c(-c4ccco4)ncnc32)cc1 | H37Rv |  |  | EC50 |  | >6.25 µg/mL |
| CN[C@@H]1[C@H](O[C@H]2[C@H](O[C@H]3[C@H](O)[C@@H](O)[C@H](N=C(N)N)[C@@H](O)[C@@H]3N=C(N)N)O[C@@H](C)[C@]2(O)C=O)O[C@@H](CO)[C@H](O)[C@H]1O | H37Ra |  | resazurin | MIC |  | 0.2 µM |
| O=C(Nc1cccc(F)c1)c1cc(Cl)ccc1O | CNCTC MY331/88 |  |  | MIC |  | 8 µM |
| COC1C[C@H](C)[C@@H](OC)C2=CC(=O)C=C(NC(=O)/C(C)=C/C=C\[C@H](C)C(OC(N)=O)/C(C)=C/[C@@H](C)[C@@H]1OC)C2=O | H37Rv |  | BACTEC | inhibition | 12.5 µg/mL | 100% |
| Brc1ccc2[nH]c3ccc(Br)cc3c2c1 | H37Rv |  |  | MIC |  | >128 µM |
| Nc1ccc(C(=O)O)c(O)c1 | 7800 |  |  | inhibition | 1.56 µM | 100% |
| O=C(NNS(=O)(=O)c1ccc(NC2=CC(=O)c3ccccc3C2=O)cc1)c1ccccc1O |  |  |  | MIC |  | 0.12–0.24 µg/mL |
| O=C(/C=C/C(=O)N1C/C(=C\c2ccccc2)C(=O)/C(=C/c2ccccc2)C1)Nc1ccccc1 | H37Rv |  |  | inhibition | 6.25 µg/mL | 0% |
| COc1cc(C)c2c(Oc3cccc(C(F)(F)F)c3)c(OC)cc(NC(C)CCCN)c2n1 | H37Ra |  | resazurin | MIC |  | 10 µM |
| Cc1ccc2c(Cl)c(Cc3ccccc3)c(N3CCOCC3)nc2n1 | H37Rv |  | BACTEC | EC50 |  | >6.25 µg/mL |
| CCCCOc1cccc(NC(=O)OCCN2CCCCC2)c1 | My 331/88 |  |  | MIC |  | 62.5 µM |
| CCCOc1ccc(NC(=O)OCCC[NH+]2CCCCC2)cc1 | My 331/88 |  |  | MIC |  | 125 µM |
| O=C1/C(=C/c2ccccc2)CN(C(=O)c2ccc([N+](=O)[O-])cc2)C/C1=C\c1ccccc1 | H37Rv |  |  | EC50 |  | >6.25 µg/mL |
| CC(=O)NC(C)C(=O)NC1C(C)OC(=O)C2=C(O)CC(O)C(O)C21 | H37Rv |  | BACTEC | inhibition | 12.5 µg/mL | 9% |
| Cc1ccc2c(c1)[nH]c1ccccc12 | H37Rv |  |  | MIC |  | >128 µM |
| O=c1oc2ccc(Cl)cc2c(=S)n1-c1ccc(Cl)cc1 | My 331/88 |  |  | MIC |  | 0.5 µM |
| O=C(c1ccccc1)c1nn2cc(-c3ccccc3)c(-c3ccccc3)c(-c3ccccc3)c2c1C(=O)c1ccccc1 | H37Rv |  | resazurin | MIC bound |  | <6.25 µg/mL |
| Clc1cc(N2CCOCC2)nc2nc(N3CCCCC3)ccc12 | H37Rv |  | BACTEC | inhibition | 6.25 µg/mL | 27% |
| CC1(C)CCC[C@]2(C)[C@H]3C=C4C=C(O)C(=O)C=C4O[C@@]3(C)CC[C@@H]12 | RMP-R |  |  | MIC |  | 12.5 µg/mL |
| O[C@H](c1cc(C(F)(F)F)nc2c(C(F)(F)F)cccc12)[C@@H]1CCCCN1 | H37Ra |  | resazurin | MIC |  | 20 µM |
| C(=C\c1cncnc1-c1ccc(-c2cccs2)s1)/c1ccc(-c2ccccc2)cc1 | MDR | Rifampicin- and isoniazid-resistant | broth dilution | MIC |  | 1.5 µg/mL |
| CC1COc2c(N3CCN(C)CC3)c(F)cc3c(=O)c(C(=O)O)cn1c23 | 11 strains (drug-resistant) |  |  | MIC50 |  | 0.37 µg/mL |
| COc1ccccc1NC(=O)OCCC[NH+]1CCCCC1 | My 331/88 |  |  | MIC |  | 500 µM |
| COc1ccc(C(=O)Nc2cccc(F)c2)c(O)c1 | CNCTC MY331/88 |  |  | MIC |  | 8 µM |
| O=c1oc2ccc(Cl)cc2c(=O)n1-c1ccc(Cl)c(Cl)c1 | My 331/88 |  |  | MIC |  | 4 µM |
| CCCCN(CCNc1ccc(C)c2sc3cc(Cl)ccc3c(=O)c12)CC(C)O | H37Rv |  | BACTEC | inhibition | 12.5 µg/mL | 27% |
| c1cc2c(N3CCCCC3)cc(N3CCOCC3)nc2nc1N1CCOCC1 | H37Rv |  | BACTEC | inhibition | 6.25 µg/mL | 11% |
| Cc1nc2c(n1CCN1CCOCC1)C(=O)c1nc(C)n(CCN3CCOCC3)c1C2=O.Cl.Cl | H37Rv |  | BACTEC | inhibition | 12.5 µg/mL | 0% |
| C[C@]1(COc2ccc(N3CCC(Oc4ccc(OC(F)(F)F)cc4)CC3)cc2)Cn2cc([N+](=O)[O-])nc2O1 | H37Rv (INH-resistant) |  |  | MIC |  | 0.012 µg/mL |
| CCCCCCCC(=O)NN(Cn1c(=S)sc2ccccc21)Cn1c(=S)sc2ccccc21 | H37Rv |  | BACTEC | MIC bound |  | >12.5 µg/mL |
| CCCCCCCCOc1ccc(NC(=O)OCCC[NH+]2CCCCC2)cc1 | My 331/88 |  |  | MIC |  | 16 µM |
| COc1c(N2C[C@@H]3CCCN[C@@H]3C2)c(F)cc2c(=O)c(C(=O)O)cn(C3CC3)c12 | H37Ra |  | resazurin | MIC |  | 0.2 µM |
| O=NN(CC(=O)N/N=C/C=C/c1ccccc1)CC(=O)N/N=C/C=C/c1ccccc1 | H37Rv |  | BACTEC | MIC |  | ≥12.5 µg/mL |
| CCCCSc1ccc(NC(=S)Nc2ccc(SCCCC)cc2)cc1 | H37Ra |  |  | MIC |  | <0.1 µg/mL |
| Cc1c(C(=O)C/C(=N\NC(=O)C[n+]2ccccc2)C(=O)Nc2ccccc2)[n+](=O)c2ccccc2n1[O-].[Cl-] | H37Rv |  | BACTEC | MIC |  | ≥12.5 µg/mL |
| Brc1cncnc1-c1ccc(-c2ccccc2)s1 | H37Rv |  | broth dilution | MIC |  | 1.5 µg/mL |

Repeating the first 10 entries:

smiles | strain | changes | read by | endpoint | dose | result
c1cc2c(N3CCCCC3)cc(N3CCOCC3)nc2nc1N1CCCCC1 | H37Rv |  | BACTEC | inhibition | 6.25 µg/mL | 43%
O=C1CCc2nc3ccccc3c(=O)n21 | H37Rv |  | resazurin | MIC bound |  | >6.25 µg/mL
Cc1ccc(-n2c(=O)oc3ccc(Cl)cc3c2=S)cc1 | My 331/88 |  |  | MIC |  | 1 µM
CCCC(=O)OCC1OC(n2ccc(O)cc2=O)C(O)C1O | H37Rv |  | BACTEC | MIC bound |  | >12.5 µg/mL
O=c1oc2ccc(Cl)cc2c(=S)n1-c1cccc(Cl)c1 | My 331/88 |  |  | MIC |  | 1 µM
CCC1(CC)N=C2OCCN2C1=O | H37Rv |  | BACTEC | MIC bound |  | >12.5 µg/mL
CCOc1cccc(NC(=O)OCCC[NH+]2CCCCC2)c1 | My 331/88 |  |  | MIC |  | 125 µM
CCOC(=O)c1ccc(NC(=O)c2ccc(C)cc2O)cc1 | CNCTC MY331/88 |  |  | MIC |  | 8 µM
O=c1oc2ccc(Cl)cc2c(=O)n1-c1cccc(Cl)c1 | My 331/88 |  |  | MIC |  | 16 µM
CCc1ccc2c(c1)[nH]c1ccc(C=O)cc12 | H37Rv |  |  | MIC |  | >128 µM